Pooled drug test results. Numbers come from NIAID ChemDB, via PubChem.

Shared fields: cytotoxicity tests; cells: CEM; read-out: CC50

Lines come from different laboratories, so protocols vary. CCn is the concentration with n% toxicity to the cells.

{"structure": "C=C(C)[C@@H]1CC[C@]2(C(=O)NCCCCCCCC(=O)NC(C)CC(=O)O)CC[C@]3(C)[C@H](CC[C@@H]4[C@@]5(C)CC[C@H](O)C(C)(C)[C@@H]5CC[C@]43C)[C@@H]12", "result": ">3 µM"}
{"structure": "Cc1sccc1C(=S)Nc1ccc(Cl)c(C(=O)OC2CCCCC2)c1", "result": "15 µg/mL"}
{"structure": "CC[C@H](C)[C@H](NC(=O)CN(CC(Cl)CCl)C(=O)[C@H](Cc1ccccc1)NC(=O)OC(C)(C)C)C(=O)N[C@H](C(=O)OC)C(C)C", "result": ">33.3 µg/mL"}
{"structure": "Cc1cc(C)cc(Oc2c(C(C)C)c(=O)[nH]c(=O)n2CC2CCC2)c1", "result": "17.2 µM"}
{"structure": "CCCCC(CC)COC(=O)c1cc(NC(=S)OC(C)C)ccc1Cl", "result": "41.5 µM"}
{"structure": "CC(C)[C@@H](CCC(=O)O)NC(=O)c1ccccc1SSc1ccccc1C(=O)N[C@H](CCC(=O)O)C(C)C", "result": "74 µM"}
{"structure": "NS(=O)(=O)c1ccc(NC(=O)c2ccccc2SSc2ccccc2C(=O)Nc2ccc(S(N)(=O)=O)cc2)cc1", "result": ">100 µM"}
{"structure": "C=C(C)[C@@H]1CC[C@]2(C(=O)NCCCCCCCCCC(=O)O)CC[C@]3(C)[C@H](CC[C@@H]4[C@@]5(C)CC[C@H](O)C(C)(C)[C@@H]5CC[C@]43C)[C@@H]12", "result": ">3 µM"}
{"structure": "COc1ccc2c(c1)OCC1c3cc(O)c(OCC(C)C)cc3OC21", "result": "24.5 µM"}
{"structure": "Cc1occc1C(=S)Nc1ccc(Cl)c(C(=O)OC2CCCCC2)c1", "result": "9.7 µg/mL"}
{"structure": "CN(C)CCCNC(=O)c1ccccc1SSc1ccccc1C(=O)NCCCN(C)C", "result": "25 µM"}
{"structure": "COC(=O)[C@H](CO)NC(=O)c1ccccc1SSc1ccccc1C(=O)N[C@@H](CO)C(=O)OC", "result": "60 µM"}
{"structure": "COc1ccc2c(c1)OCC1c3cc(O)c(OCc4ccc5ccccc5c4)cc3OC21", "result": "34.2 µM"}
{"structure": "CC(C)CNC(=O)c1ccccc1SSc1ccccc1C(=O)NCC(C)C", "result": "4.6 µM"}
{"structure": "O=C(NC1(C(=O)O)CCCCC1)c1ccccc1SSc1ccccc1C(=O)NC1(C(=O)O)CCCCC1", "result": "25.6 µM"}
{"structure": "C=CCN(CC(=O)N[C@H](C(=O)N[C@H](C(=O)OC)C(C)C)[C@@H](C)CC)C(=O)[C@H](Cc1ccccc1)NC(=O)[C@H](C)NC(=O)OC(C)(C)C", "result": "35.7 µg/mL"}
{"structure": "CC(=O)c1ccc(NC(=O)c2ccccc2SSc2ccccc2C(=O)Nc2ccc(C(C)=O)cc2)cc1", "result": "54 µM"}
{"structure": "CSc1sccc1C(=O)Nc1ccc(Cl)c(/C=N/OC(C)(C)C)c1", "result": "7.8 µg/mL"}
{"structure": "Cn1c(=O)sc2cc(C(=O)c3ccc(Cl)c(Cl)c3)ccc21", "result": "8.5 µg/mL"}
{"structure": "C=C(C)[C@@H]1CC[C@]2(C(=O)NCCCCCCCNC(=O)c3cccc(C(=O)O)c3)CC[C@]3(C)[C@H](CC[C@@H]4[C@@]5(C)CC[C@H](O)C(C)(C)[C@@H]5CC[C@]43C)[C@@H]12", "result": "0.525 µM"}
{"structure": "O=C(Nc1ccc(F)cc1)c1ccccc1SSc1ccccc1C(=O)Nc1ccc(F)cc1", "result": "14 µM"}
{"structure": "O=C(OC1CCCCC1)c1cc(NC(=S)c2ccccc2)ccc1Cl", "result": "5.2 µg/mL"}
{"structure": "Cc1cc(C)cc(Sc2c(C(C)C)c(=O)[nH]c(=O)n2CCC2CC=CC2)c1", "result": "15.6 µM"}
{"structure": "CC1=C(C(=O)Nc2cc(C(=O)OC(C)C)c(C)cc2F)SCCO1", "result": ">100 µg/mL"}
{"structure": "C=C(C)[C@@H]1CC[C@]2(C(=O)NCCCCC(=O)O)CC[C@]3(C)[C@H](CC[C@@H]4[C@@]5(C)CC[C@H](O)C(C)(C)[C@@H]5CC[C@]43C)[C@@H]12", "result": ">3 µM"}
{"structure": "Nc1ccccc1SSc1ccccc1N", "result": "53 µM"}
{"structure": "Cc1occc1C(=S)Nc1ccc(Cl)c(COC(C)(C)C)c1", "result": "18 µg/mL"}
{"structure": "CCc1c(Oc2cc(C)cc(C)c2)n(CCC2=CCCC2)c(=O)[nH]c1=O", "result": ">1120 µM"}
{"structure": "CCCCCOC(=O)c1cc(NC(=O)C2=C(C)OCCS2)ccc1Cl", "result": "41 µg/mL"}
{"structure": "Cc1cc(C)cc(Oc2c(C(C)C)c(=O)[nH]c(=O)n2CC2CCCCC2)c1", "result": "55.6 µM"}
{"structure": "CC(C)=CCOc1cc(NC(=S)c2ccoc2C)ccc1Cl", "result": ">100 µg/mL"}
{"structure": "CC[C@H](C)[C@H](NC(=O)C(C)N(C(=O)[C@H](Cc1ccccc1)NC(=O)[C@H](C)NC(=O)OC(C)(C)C)C(Cl)CCl)C(=O)N[C@H](C(=O)OC)C(C)C", "result": ">100 µg/mL"}
{"structure": "CC1=C(C(=O)Nc2cc(Cl)cc(C(=O)OC(C)C)c2)SCCO1", "result": "60 µg/mL"}
{"structure": "COc1ccc2c(c1)OCC1c3cc(O)c(OCC4CCCCC4)cc3OC21", "result": "22.2 µM"}
{"structure": "O=C(c1ccccc1)c1ccc2[nH]c(=O)sc2c1", "result": "7.1 µg/mL"}
{"structure": "Nc1ccn([C@@H]2O[C@H](CO)[C@@H](CO)[C@@H]2F)c(=O)n1", "result": "≥100 µM"}
{"structure": "CC[C@@H](C)[C@@H](NC(=O)c1ccccc1SSc1ccccc1C(=O)N[C@@H](C(=O)O)[C@H](C)CC)C(=O)O", "result": "113 µM"}
{"structure": "CCC(CC)Oc1ccc(NC(=O)c2ccccc2SSc2ccccc2C(=O)Nc2ccc(OC(CC)CC)cc2)cc1", "result": "92 µM"}
{"structure": "CC1=C(C(=O)Nc2ccc(F)c(C(=O)OC(C)C)c2)SCCO1", "result": ">100 µg/mL"}
{"structure": "CC(C)NS(=O)(=O)c1ccc(NC(=O)c2ccccc2SSc2ccccc2C(=O)Nc2ccc(S(=O)(=O)NC(C)C)cc2)cc1", "result": "38 µM"}
{"structure": "Cc1occc1C(=O)Nc1ccc(Cl)c(OCCC(C)C)c1", "result": "5 µg/mL"}
{"structure": "O=C(c1ccccc1SSc1ccccc1C(=O)N1CCCCC1)N1CCCCC1", "result": "27 µM"}
{"structure": "CCCCC(=O)c1ccc2c(c1)oc(=O)n2CCN1CCOCC1", "result": "15 µg/mL"}
{"structure": "Cc1sccc1C(=O)Nc1ccc(Cl)c(C(=O)OC(C(C)C)C(C)C)c1", "result": "4.1 µg/mL"}
{"structure": "CC(C)OC(=O)c1cc(NC(=S)OC(C)C)ccc1Cl", "result": "38 µM"}
{"structure": "O=C(c1ccc(F)cc1)c1ccc2[nH]c(=O)oc2c1", "result": "35 µg/mL"}
{"structure": "CC(C)(C)O/N=C/c1cc(NC(=S)c2ccccc2)ccc1Cl", "result": "9.7 µg/mL"}
{"structure": "CCc1c(Sc2cc(C)cc(C)c2)n(CCC2C=CCC2)c(=O)[nH]c1=O", "result": "6.8 µM"}
{"structure": "O=C(NNC(=O)c1ccccc1SSc1ccccc1C(=O)NNC(=O)c1ccncc1)c1ccncc1", "result": "67 µM"}
{"structure": "CCC(=O)c1ccc(NC(=O)c2ccccc2SSc2ccccc2C(=O)Nc2ccc(C(=O)CC)cc2)cc1", "result": "105 µM"}
{"structure": "C=CCN(CC(=O)N[C@H](C(=O)N[C@H](C(=O)OC)C(C)C)[C@@H](C)CC)C(=O)[C@H](Cc1ccccc1)NC(=O)[C@H](C)N", "result": ">100 µg/mL"}
{"structure": "O=C(NC(C(=O)O)c1ccccc1)c1ccccc1SSc1ccccc1C(=O)NC(C(=O)O)c1ccccc1", "result": ">100 µM"}
{"structure": "CS(=O)(=O)c1ccc(NC(=O)c2ccccc2SSc2ccccc2C(=O)Nc2ccc(S(C)(=O)=O)cc2)cc1", "result": "22 µM"}
{"structure": "Cc1occc1C(=O)Nc1ccc(Cl)c(COC(C)(C)C)c1", "result": "6.2 µg/mL"}
{"structure": "CC[C@H](C)[C@H](NC(=O)c1ccccc1SSc1ccccc1C(=O)N[C@H](C(=O)O)[C@@H](C)CC)C(=O)O", "result": "140 µM"}
{"structure": "O=C(c1ccccc1SSc1ccccc1C(=O)N1CCC(O)C1)N1CCC(O)C1", "result": ">200 µM"}
{"structure": "CCCC1=C(C(=O)Nc2ccc(Cl)c(C(=O)OCC)c2)SCCO1", "result": ">100 µg/mL"}
{"structure": "CC1=C(C(=S)Nc2ccc(Cl)c(C=NOC(C)(C)C)c2)CCCO1", "result": "10 µg/mL"}
{"structure": "CN(C)CCCNC(=O)c1ccccc1SSc1ccccc1C(=O)NCCCN(C)C", "result": "29 µM"}
{"structure": "Cc1sccc1C(=O)Nc1ccc(Cl)c(OCCC(C)C)c1", "result": "7 µg/mL"}
{"structure": "C=CCN(C(=O)[C@H](Cc1ccccc1)NC(=O)OC(C)(C)C)C(C)C(=O)N[C@H](C(=O)N[C@H](C(=O)OC)C(C)C)[C@@H](C)CC", "result": ">10 µg/mL"}
{"structure": "CCC(CC)OC(=O)c1cc(NC(=S)c2ccccc2N)ccc1Cl", "result": "29 µg/mL"}
{"structure": "CC1=C(C(=O)Nc2ccc(Cl)c(C(=O)OCC3CCC3)c2)SCCO1", "result": "20 µg/mL"}
{"structure": "Cc1occc1C(=S)Nc1ccc(Cl)c(/C=N/OC2CCCC2)c1", "result": "5.4 µg/mL"}
{"structure": "C=C(C)[C@@H]1CC[C@]2(C(=O)NCCCCCCCC(=O)O)CC[C@]3(C)[C@H](CC[C@@H]4[C@@]5(C)CC[C@H](O)C(C)(C)[C@@H]5CC[C@]43C)[C@@H]12", "result": ">3 µM"}

8 of the rows above, restated:

structure,result
CC1=C(C(=O)Nc2cc(Cl)cc(C(=O)OC(C)C)c2)SCCO1,60 µg/mL
C=CCN(CC(=O)N[C@H](C(=O)N[C@H](C(=O)OC)C(C)C)[C@@H](C)CC)C(=O)[C@H](Cc1ccccc1)NC(=O)[C@H](C)NC(=O)OC(C)(C)C,35.7 µg/mL
Cc1sccc1C(=S)Nc1ccc(Cl)c(C(=O)OC2CCCCC2)c1,15 µg/mL
C=C(C)[C@@H]1CC[C@]2(C(=O)NCCCCCCCCCC(=O)O)CC[C@]3(C)[C@H](CC[C@@H]4[C@@]5(C)CC[C@H](O)C(C)(C)[C@@H]5CC[C@]43C)[C@@H]12,>3 µM
CCC(CC)Oc1ccc(NC(=O)c2ccccc2SSc2ccccc2C(=O)Nc2ccc(OC(CC)CC)cc2)cc1,92 µM
CCc1c(Sc2cc(C)cc(C)c2)n(CCC2C=CCC2)c(=O)[nH]c1=O,6.8 µM
CC(C)OC(=O)c1cc(NC(=S)OC(C)C)ccc1Cl,38 µM
CC[C@H](C)[C@H](NC(=O)c1ccccc1SSc1ccccc1C(=O)N[C@H](C(=O)O)[C@@H](C)CC)C(=O)O,140 µM